The subject of the data set is RPtag (large). The data set is described as follows: Association/dissociation kinetics of RPtag (small) peptides with RPtag (large) by fluorescence anisotropy. The settings on record: equilibrium non-binding S / binding S* state. Also noted: species or system Thermoanaerobacter tengcongensis. How it is done:
Panel a depicts representative association rate kinetics traces varying native RPtag small. Rhodamine labeled RPtag small at the indicated concentration was incubated with unlabeled RPtag large and the association measured by fluorescence anisotropy. L-S complex concentration was calculated by the equation (r−rmin)/(rmax−rmin)*[S] where r is the measured anisotropy, rmin is the anisotropy in the absence of any RPtag large, rmax is the anisotropy measured in the presence of at saturating RPtag large, and [S] is the total concentration of RPtag small used in the experiment. […] Dashed cyan lines are simulations of the mechanism shown in f using the rate constants detailed herein. […]
LS complex was performed by incubating 1000 nM RPtag large with the indicated concentrations of rhodamine labeled RPtag small. At the start of the experiment, 0.1 mM unlabeled native RPtag small was added and fluorescence anisotropy monitored. […]
The library of mutant RPtag(small) peptides, described above, was next analyzed to measure off rates (koff). The on rate was also calculated from measured koff and Kd (S*-LS transition), except instead of using unlabeled native peptide as the competitor, we used unlabeled Nd2,P5A,E18A (the tightest binding RPtag(small) peptide identified). […]
For orientation: Polarisation of emitted light reports the rotation of a fluorescent probe.

On to “GEKIPNFIPAELKLITKENVQ [q21a, RPtag(small) with Q21 changed to alanine]”, for which the “Keq (S-S*)” value worked out at 0.8 ± 0.1.

For the origin of these results see patent US11414454B2, “Compositions, methods, and systems for affinity-based protein identification and purification” (Auctus Biologies, Inc., priority 2017, dated 2022).
